# Target: IL-13 receptor (IL-13R) on human tumor cells (human)
# The chains behind the UniProt entries cited, without tags or fusion partners. Where a name states a change or a piece, a line headed by the entry shows the natural chain unless it says otherwise.
# UniProt P35225: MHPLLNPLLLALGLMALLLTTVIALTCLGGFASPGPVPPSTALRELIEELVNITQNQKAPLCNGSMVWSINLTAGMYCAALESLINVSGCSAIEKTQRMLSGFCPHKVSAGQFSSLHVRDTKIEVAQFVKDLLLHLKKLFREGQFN
# Assay: cell-based or functional assay
substance,measurement,value
hIL-13-PE4E (from UniProt P35225 33-146; P11439 26-638),"cytotoxic activity, fold better than hIL-13-PE38QQR",2 fold

# From US6518061
